Measured values from several laboratories, pooled; numbers as filed in NIAID ChemDB.

Common to all: target-level tests; organism: HIV; target: Protease; endpoint: IC50

a–b is a range or a potency band.

O=C(CCCCCCCCCCC(=O)Nc1ccc(S(=O)(=O)O)c2cccc(S(=O)(=O)O)c12)Nc1ccc(S(=O)(=O)O)c2cccc(S(=O)(=O)O)c12 ; read by: fluorescence ; result: 18 µM
CC(C)(C)NC(=O)[C@@H]1CCCN1C(=O)[C@@H](O)[C@H](Cc1ccccc1)NC(=O)[C@H](CC(N)=O)NC(=O)COc1cccc([N+](=O)[O-])c1 ; read by: HPLC ; result: 0.032 µg/mL
CC[C@H](C)[C@H](NC(=O)[C@@H]1CCCN1C(=O)[C@H](Cc1ccc(O)cc1)NC(=O)[C@@H](NC(=O)[C@H](CCC(N)=O)NC(=O)[C@@H](N)CO)C1CCCO1)C(=O)N[C@H](C(=O)O)C(C)C ; result: <0.05 µM
O=C(CCCCCC(=O)Nc1ccc(S(=O)(=O)O)c2cccc(S(=O)(=O)O)c12)Nc1ccc(S(=O)(=O)O)c2cccc(S(=O)(=O)O)c12 ; read by: fluorescence ; result: 110 µM
CC(C)(C)OC(=O)C[C@@H](CC1CCCCC1)[C@@H](O)C[C@@H](Cc1ccc(O)cc1)C(=O)N[C@H]1c2ccccc2C[C@H]1O ; read by: HPLC ; result: 0.001–0.1 µM
CC(C)(C)NC(=O)[C@@H]1C[C@@H]2CCCC[C@@H]2CN1C[C@@H](O)CN(CCCc1ccccc1)S(=O)(=O)c1ccc(N)cc1 ; result: 0.05 µM
CCCCCCCCCCCCCCCC(=O)Nc1ccc(S(=O)(=O)O)c2cccc(S(=O)(=O)O)c12 ; read by: fluorescence ; result: 4 µM
CC(C)(C)NC(=O)[C@@H]1CCCN1C(=O)[C@@H](O)[C@H](Cc1ccccc1)NC(=O)[C@H](CC(N)=O)NC(=O)COc1ccc([N+](=O)[O-])cc1 ; read by: HPLC ; result: 0.028 µg/mL
CCCC[C@H](NC(=O)[C@H](C)NC(=O)[C@H](CCC(=O)O)NC[C@H](Cc1ccccc1)NC(=O)[C@H](CC(C)C)NC(=O)[C@@H](NC(=O)[C@@H](N)CCCN=C(N)N)C(C)C)C(N)=O ; read by: HPLC ; changes: PR-R8Q ; result: <0.075 µM
O=C(CCCCCCCCCCC(=O)Nc1ccc(S(=O)(=O)O)c2ccccc12)Nc1ccc(S(=O)(=O)O)c2ccccc12 ; read by: fluorescence ; result: 275 µM
CCCCC(=O)C[C@@H](CC1CCCCC1)[C@@H](O)C[C@@H](Cc1ccccc1)C(=O)N[C@H]1c2ccccc2C[C@H]1O ; read by: HPLC ; result: 0.0115–0.058 µM
CC(C)(C)NC(=O)[C@@H]1C[C@H](O)CN1C(=O)[C@@H](O)[C@H](Cc1ccccc1)NC(=O)[C@H](CC(N)=O)NC(=O)OCc1ccccc1 ; read by: HPLC ; result: 0.022 µg/mL
CC(C)(C)NC(=O)c1ccccc1C[C@@H](O)[C@@H](Cc1ccccc1)NC(=O)c1cccc2c1CCNC2 ; read by: fluorescence ; result: 0.113 µg/mL
COc1ccc(S(=O)(=O)N(CCc2ccc3c(c2)OCO3)C[C@H](O)CN2C[C@H]3CCCC[C@H]3C[C@H]2C(=O)NC(C)(C)C)cc1 ; result: 42.43 µM
COc1ccc(S(=O)(=O)N(CC(C)C)C[C@@H](O)COc2ccc3[nH]ccc3c2)cc1OC ; result: 1.04 µM
COc1ccc(S(=O)(=O)N(CCc2cccc(N)c2)C[C@H](O)CN2C[C@H]3CCCC[C@H]3C[C@H]2C(=O)NC(C)(C)C)cc1 ; result: >200 µM
O=C(CC1CCOC1)C[C@@H](CC1CCCCC1)[C@@H](O)C[C@@H](Cc1ccccc1)C(=O)N[C@H]1c2ccccc2C[C@H]1O ; read by: HPLC ; result: 0.0115–0.058 µM
Cc1cc(C)c(S(=O)(=O)Oc2ccc3cccc(S(=O)(=O)O)c3c2)c(C)c1S(=O)(=O)Oc1ccc2cccc(S(=O)(=O)O)c2c1 ; read by: fluorescence ; result: 45 µM
CC(C)(C)NC(=O)[C@@H]1C[C@@H]2CCCC[C@@H]2CN1C[C@@H](O)CN(CCc1cccc(N)c1)S(=O)(=O)c1cccc(N)c1 ; result: 10.39 µM
CC(C)(C)NC(=O)[C@@H]1CCCN1C(=O)[C@@H](O)[C@H](Cc1ccccc1)NC(=O)[C@H](CC(N)=O)NC(=O)COc1ccccc1 ; read by: HPLC ; result: 0.022 µg/mL
C=CC(C)(C)c1[nH]c2ccccc2c1C1=C(O)C(=O)C(c2c(C(C)(C)C=C)[nH]c3ccccc23)=C(O)C1=O ; changes: PR-V82T ; result: 1.8 µM
CC(C)(C)NC(=O)[C@@H]1C[C@@H]2CCCC[C@@H]2CN1C[C@@H](O)CN(CCc1cccc([N+](=O)[O-])c1)S(=O)(=O)c1cccc([N+](=O)[O-])c1 ; result: 29.85 µM

ICn: concentration for n% inhibition. Neighbouring rows are from separate reports.